Measured values from several laboratories, pooled; numbers as filed in NIAID ChemDB.

Common to all: whole-cell or culture tests; species: Influenza A virus; endpoint: EC50

ECn is the concentration giving n% inhibition of infection, replication or growth.

SMILES,strain,cells,method,result
CC(N)C12CC3CC(CC(C3)C1)C2,H1N1 A/PR/8/34,MDCK cells,cytopathic effect,32.5 µM
C[C@@H]1CCC[C@@H]2C[C@@H](NC(=O)c3ccccc3N)CCN21,H1N1 A/WSN/33,MDBK,plaque count,5–10 µg/mL
CC(N)C12CC3CC(CC(C3)C1)C2,Influenza A/Mississippi/1/85 (H3N2),MDCK,-,<0.27 µM
C[C@@H]1CCC[C@@H]2C[C@@H](NC(=O)c3cc(Cl)ccc3O)CCN21,H1N1 A/WSN/33,MDBK,plaque count,0.8 µg/mL
N=C(N)c1ncn([C@@H]2O[C@H](CO)[C@@H](O)[C@H]2O)n1,Influenza A/Sydney/05/97 (H3N2),MDCK,neutral red,23 µg/mL
CCCCCCCC(=O)N[C@@H]([C@@H]1OC(C(=O)O)=C[C@H](N=C(N)N)[C@H]1NC(C)=O)[C@H](O)CO,A/Yamagata/32/89,-,plaque count,0.08 µg/mL
NC(=O)c1nc(F)c[nH]c1=O,H1N1 FM/1/47,MDCK,plaque count,0.2 µg/mL
C[C@@H]1CCC[C@@H]2C[C@@H](NC(=O)c3cc(F)ccc3O)CCN21,H1N1 A/WSN/33,MDBK,plaque count,0.4–0.8 µg/mL
CC(=O)N[C@H]1[C@H]([C@H](O)[C@H](O)CO)OC(C(=O)O)=C[C@@H]1N,A/Brazil/11/78 (H1N1),MDCK,plaque count,8.5 µM
CC(C)CC1=N/C(=C\c2ccc(F)cc2)C(=O)N(O)C1=O,-,-,-,>10 µM
CC(=O)N[C@@H]1[C@@H](N=C(N)N)C=C(C(=O)O)O[C@H]1C[C@H](O)CO,A/Yamagata/32/89,-,plaque count,0.004 µg/mL
C#Cc1c(C(N)=O)ncn1[C@@H]1O[C@H](CO)[C@@H](O)[C@H]1O,A/Ishikawa,MDCK,plaque count,2.5 µg/mL
C[C@@H]1CCC[C@@H]2C[C@@H](NC(=O)c3cc(-c4ccccc4)ccc3O)CCN21,H1N1 A/WSN/33,MDBK,plaque count,>20 µg/mL
CC(N)C12CC3CC(CC(C3)C1)C2,H1N1 A/TEXAS/36/91,MDCK,neutral red / visual reading,0.15 µM
C[C@@H]1CCC[C@@H]2C[C@@H](NC(=O)c3ccc(N)c(Cl)c3)CCN21,H1N1 A/WSN/33,MDBK,plaque count,>20 µg/mL
CCOC(=O)C1=C[C@@H](OC2CCCCC2)[C@H](NC(C)=O)[C@@H](N)C1,H1N1 A/PR/8/34,MDCK cells,cytopathic effect,28.5 µM
C[C@@H]1CCC[C@@H]2C[C@@H](NC(=O)c3cc(C(F)(F)F)ccc3O)CCN21,H1N1 A/WSN/33,MDBK,plaque count,>20 µg/mL
CC(=O)N[C@@H]1[C@@H](N=C(N)N)C=C(C(=O)O)O[C@H]1C(F)(F)[C@H](O)CO,A/Yamagata/32/89,-,plaque count,0.01 µg/mL
Cc1ccccc1NC(=O)CSc1sc(N)nc1-c1ccc(Br)cc1Br,H1N1 A/PR/8/34,MDCK cells,cytopathic effect,0.97 µM
CC1(C)C[C@H](O)C[C@@](C)(CNC(=O)c2cc(Cl)ccc2O)C1,H-1,-,plaque count,0.13 µg/mL
C[C@@H]1CCC[C@@H]2C[C@@H](NC(=O)c3ccccc3O)CCN21,H1N1 A/WSN/33,MDBK,plaque count,1.6–3.1 µg/mL

Two numbers with a dash give a range or band. An empty or dashed field is not shown. Neighbouring rows are from separate reports.